Results on one substance are retold here after patent US20100324034A1 (priority 2007, published 2010).

Assay [1] relates to J89, a Jurkat T cell line infected with a single HIV genome encoding EGFP. As to the kind of experiment: J89 cell line: chromatin immunoprecipitation at nucleosome 1, EGFP mRNA RT-PCR, p24 ELISA. On the technique in general: ELISA stands for enzyme-linked immunosorbent assay.
In assay [2] the test system is resting CD4+ T cells from aviremic, ART-treated HIV+ patients. Put plainly: limiting-dilution outgrowth assay, HIV detected by p24 antigen capture ELISA. Format: cell-based, human. The conditions noted are these: for Infected resting cells per billion after exposure to: VPA 40 μM, SAHA 250 nM, PHA/allo.

On to “N-Hydroxy-N′-phenyl octanediamide [SAHA]”, for which, in assay [1], the HIV transcription result is given as “efficiently induced”. Also, in assay [1], the “chromatin remodeling at nucleosome 1” value is reported as “efficiently induced”. In addition, the virus production result in assay [1] was “efficiently induced”. Further, the “Infected resting cells per billion after exposure to” value in assay [2] (Patient A1) is listed as 410 per billion; in assay [2] (Patient A2), 561 per billion; in assay [2] (Patient B), 1,927 per billion; in assay [2] (Patient C), below 31 per billion. Besides, the “virus outgrowth ex vivo from patients' cells” value in assay [2] (summary in words) was “efficiently induced”.
